A mixed list of measured activities; the numbers were collected in NIAID ChemDB.

Common to all: tests on isolated targets

ICn is the concentration giving n% inhibition. An empty or dashed field is not shown. Lines come from different laboratories, so protocols vary. Percent inhibition refers to the dose given; in toxicity tests it is the harm to the cells.

structure | dose | strain | target | method | endpoint | agent | result
COc1cc(Cc2sc3nc(N)nc(N)c3c2C)c(Br)c(OC)c1OC |  | TYPE 2 | Dihydrofolate reductase |  | IC50 | Cryptosporidium parvum | 0.78 µM
NC1CCN(c2c(F)cc3c(=O)c(C(=O)O)cn(C4CC4)c3c2Cl)C1 |  |  | DNA gyrase |  | IC50 | Streptococcus pneumoniae | 20.4 µg/mL
COc1cc(NCc2csc3nc(N)nc(N)c23)cc(OC)c1OC | 10 µM |  | DHFR |  | inhibition | Toxoplasma gondii | <30%
C[C@@H]1CN(c2c(F)c(N)c3c(=O)c(C(=O)O)cn(C4CC4)c3c2F)C[C@H](C)N1 |  | J24 (quinolone- penicillin-sensitive) | DNA gyrase |  | IC50 | Streptococcus pneumoniae | 69 µg/mL
Nc1ncc(CNc2ccc(C(=O)N[C@@H](CCC(=O)O)C(=O)O)cc2)c(N)n1 |  | TYPE II | Dihydrofolate reductase |  | IC50 | Cryptosporidium parvum | 0.1 µM
CCCCCCCCCCCCC/C=C/[C@@H](O)[C@H](CO[C@@H]1O[C@H](CO)[C@H](O)[C@H](OS(=O)(=O)O)[C@H]1O)NC(=O)CCCCCCCCCCCCCCCCCCCCCCC | 200 µM | Influenza A/Memphis/1/71 (H3N2) | Sialidase |  | inhibition | Influenza A virus | 94.7%
O=C(O)CCNC(=O)c1ccc2c(c1)nc(-c1ccc3ncc(-c4ccccc4)cc3c1)n2C1CCCCC1 | 33 µM |  | NS5B polymerase |  | inhibition | Hepatitis C virus | 49.12%
NC1CCN(c2nc3c(cc2F)c(=O)c(C(=O)O)cn3-c2ccc(F)cc2F)C1 |  | J24 (quinolone- penicillin-sensitive) | Topoisomerase IV |  | IC50 | Streptococcus pneumoniae | 5.97 µg/mL
COc1ccc(Cl)cc1-c1cncc(N2CCN(c3ccccc3OC)CC2)n1 |  |  | UL97 kinase |  | IC50 | Cytomegalovirus | <100 µM
N#CC1=C(N)Oc2[nH]ncc2C1(c1cc(Cl)cc(Cl)c1)C1CCC1 |  |  | Serine hydroxymethyltransferase | absorbance | Ki | Plasmodium falciparum | 0.348 µM
COc1ccc(-c2ccc(C#N)cc2)c(-c2ccc3cc(-c4nc5cc(C(=O)O)ccc5n4C4CCCCC4)ccc3n2)c1 | 100 µM |  | NS5B polymerase |  | inhibition | Hepatitis C virus | 102.6%
Nc1cc(CCc2ccc(F)cc2)nc(N)n1 |  | TYPE I | Dihydrofolate reductase |  | IC50 | Cryptosporidium parvum | >1000 µM
OCC1CCCN1c1nccnc1-c1cc2ccccc2o1 |  |  | UL97 kinase |  | IC50 | Cytomegalovirus | <10 µM
Cc1[nH]nc2c1C(c1cc(Cl)cc(N3CCOCC3)c1)(C1CCC1)C(C#N)=C(N)O2 |  |  | Serine hydroxymethyltransferase | absorbance | Ki | Plasmodium falciparum | 0.482 µM
Nc1nc(N)c2nc(Cc3ccc(Cl)cc3)c(Cc3ccc(Cl)cc3)nc2n1 |  | TYPE 1 | Dihydrofolate reductase |  | IC50 | Cryptosporidium parvum | 1.2 µM
Nc1nc(N)c(-c2ccc(Cl)cc2)c(/C=C/c2ccc([N+](=O)[O-])cc2)n1 |  | TYPE I | Dihydrofolate reductase |  | IC50 | Cryptosporidium parvum | 80 µM
Cc1ccccc1-c1cncc(N2CCN(c3cccc(Cl)c3)CC2)n1 | 10 µM |  | UL97 kinase |  | inhibition | Cytomegalovirus | >15%
O=C(O)c1ccc2c(c1)nc(-c1ccc3nc(-c4ccc[nH]4)ccc3c1)n2C1CCCCC1 | 33 µM |  | NS5B polymerase |  | inhibition | Hepatitis C virus | 96.48%
c1ccc2cc(-c3cncc(N4CCN(CCN5CCCC5)CC4)n3)ccc2c1 |  |  | UL97 kinase |  | IC50 | Cytomegalovirus | <1 µM
C[C@H]1NCc2cc(-c3ccc4c(=O)c(C(=O)O)cn(C5CC5)c4c3OC(F)F)ccc21 |  |  | Topoisomerase II |  | IC50 | Streptococcus pneumoniae | 0.844 µg/mL
O=C(O)C1Cc2ccccc2CN1C(=O)c1ccc2c(c1)nc(-c1ccc3nc(-c4ccccc4)cnc3c1)n2C1CCCCC1 | 100 µM |  | NS5B polymerase |  | inhibition | Hepatitis C virus | 98.89%
CCc1c(Cl)nc(N)nc1Nc1ccc(Br)cc1 |  | TYPE I | Dihydrofolate reductase |  | IC50 | Cryptosporidium parvum | >200 µM
Cc1[nH]nc2c1C(c1cc(C#N)cc(-c3ccc(C(=O)O)cc3)c1)(C(C)C)C(C#N)=C(N)O2 |  |  | Serine hydroxymethyltransferase | absorbance | Ki | Plasmodium falciparum | 0.32 µM
Cc1c(Cc2ccc(Cl)c(Cl)c2)sc2nc(N)nc(N)c12 |  | TYPE 2 | Dihydrofolate reductase |  | IC50 | Cryptosporidium parvum | >10 µM
O=C(O)c1ccc2c(c1)nc(-c1ccc3nc(-c4ccccc4-c4ccc(Cl)c(Cl)c4)ccc3c1)n2C1CCCCC1 | 100 µM |  | NS5B polymerase |  | inhibition | Hepatitis C virus | 99.93%
COc1c(N2CCNC(C)C2)ccc2c(=O)c(C(=O)O)cn(C3CC3)c12 |  |  | Topoisomerase II |  | IC50 | Streptococcus pneumoniae | 13.3 µg/mL
COc1ccc(Cl)cc1-c1cncc(N2CCN(c3ccncc3)CC2)n1 |  |  | UL97 kinase |  | IC50 | Cytomegalovirus | <100 µM
COc1ccc(-c2ccc(Cl)cc2)c(-c2ccc3cc(-c4nc5cc(C(=O)O)ccc5n4C(C)C)ccc3n2)c1 | 33 µM |  | NS5B polymerase |  | inhibition | Hepatitis C virus | 99.42%
CN(C)c1ccc(-c2cncc(N3CCN(c4cccc(Cl)c4)CC3)n2)cc1 | 10 µM |  | UL97 kinase |  | inhibition | Cytomegalovirus | >15%
CN(Cc1ccc2nc(N)nc(N)c2n1)c1ccc(C(=O)NC2CCCCC2)cc1 |  | TYPE 1 | Dihydrofolate reductase |  | IC50 | Cryptosporidium parvum | 4.7 µM
CN1CCN(c2cc3c(cc2F)c(=O)c(C(=O)O)cn3C2CC2)CC1 |  |  | DNA gyrase |  | IC50 | Streptococcus pneumoniae | 142 µg/mL
CCc1[nH]nc2c1C(c1cc(Cl)cc(Cl)c1)(C1CCC1)C(C#N)=C(N)O2 |  |  | Serine hydroxymethyltransferase | absorbance | IC50 | Plasmodium falciparum | 0.51 µM
CN1CCN(C(=O)c2ccc3c(c2)nc(-c2cc4ccc(-c5ccccc5-c5ccc(Cl)cc5)nc4cc2F)n3C2CCCCC2)CC1 | 33 µM |  | NS5B polymerase |  | inhibition | Hepatitis C virus | 84.85%
COc1ccc(N2CCN(c3cncc(-c4cc5ccccc5s4)n3)CC2)cc1 | 1 µM |  | UL97 kinase |  | inhibition | Cytomegalovirus | <50%
COc1ccc(OC)c(NCc2csc3nc(N)nc(N)c23)c1 |  |  | DHFR |  | IC50 | Toxoplasma gondii | >10 µM
CCOc1cc(-c2ccccc2)nc2ccc(-c3nc4cc(C(=O)O)ccc4n3C3CCCCC3)cc12 | 33 µM |  | NS5B polymerase |  | inhibition | Hepatitis C virus | 94.82%
NNC(=O)c1ccncc1 |  | H37Rv | Alpha-ketoglutarate dehydrogenase |  | IC50 | Mycobacterium tuberculosis | >1000 µM
c1ccc2cc(-c3cncc(NCCc4ccncc4)n3)ccc2c1 |  |  | UL97 kinase |  | IC50 | Cytomegalovirus | <1 µM
NC(=O)[C@H](Cc1ccccc1)NC(=O)c1ccc2cc(-c3nc4cc(C(=O)O)ccc4n3C3CCCCC3)ccc2n1 | 33 µM |  | NS5B polymerase |  | inhibition | Hepatitis C virus | 81.13%
Cc1ccc(-c2cncc(N3CCN(c4ccc(C)cc4)CC3)n2)cc1 |  |  | UL97 kinase |  | IC50 | Cytomegalovirus | <100 µM
Nc1nc(N)c(CCCOc2ccc(NC(=O)c3cccc(S(=O)(=O)F)c3)cc2Cl)c(N)n1 |  | TYPE II | Dihydrofolate reductase |  | IC50 | Cryptosporidium parvum | 20 µM

For reference, 3 entries again:

structure	dose	strain	target	method	endpoint	agent	result
Nc1ncc(CNc2ccc(C(=O)N[C@@H](CCC(=O)O)C(=O)O)cc2)c(N)n1		TYPE II	Dihydrofolate reductase		IC50	Cryptosporidium parvum	0.1 µM
COc1ccc(Cl)cc1-c1cncc(N2CCN(c3ccncc3)CC2)n1			UL97 kinase		IC50	Cytomegalovirus	<100 µM
O=C(O)c1ccc2c(c1)nc(-c1ccc3nc(-c4ccccc4-c4ccc(Cl)c(Cl)c4)ccc3c1)n2C1CCCCC1	100 µM		NS5B polymerase		inhibition	Hepatitis C virus	99.93%